# Laboratory results from PMC9837764 (Nature Communications, 2023).
# Tested on: SARS-CoV-2
# Test: Virus passage under drug and genome sequencing (mutation profile)
# Settings: four passages in Calu-3, drug at 5 mM; samples #1-#4
smiles,measurement,value
"CC(C)C(=O)OC[C@H]1O[C@@H](n2ccc(NO)nc2=O)[C@H](O)[C@@H]1O [MK-4482, molnupiravir, reference compound]",Mutations C:C (Fig2F source data),0.0
same,Mutations T:T (Fig2F source data),0.0
